# B1: AsNAL: N-acetylneuraminate lyase isolated from the psychrophilic bacterium Aliivibrio salmonicida LFI1238, recombinantly expressed in E. coli (protein, listed as Aliivibrio salmonicida)
# chain: MKKLTGLIAAPHTPFDSSSNVNFEEIDKIAKHLINDGVKGIYVCGTTGEGIHCSVEERKAIAERWVSACNHKLDIIVHTGALSIVDTLELTRHADTLDILATSAIGPCFFKPGSVSDLVEYCATIAAAAPSKGFYYYHSGMSGVNLNMEEFLIQADKRIPNLSGLKFNSGDLYEYQRCLRACDGKFDVPFGVDEFLPGALAVGAKSAVGSTYNYAAPHFNSIIEAFNKGDHDAVFNKMTNVIELIRVLVEFGGVAAGKIAMELHDINAGDPRLPLMPLSAEQKLTVVEKMRAANFLK
# Assay: Condensation-cleavage equilibrium studies
# Format: biochemical
# Settings: HEPES pH 8.0
molecule,measurement,setting,value
B1,"equilibrium constant for the cleavage reaction, Kc",4° C.,0.003
same,"equilibrium constant for the cleavage reaction, Kc",23° C.,0.031
same,"equilibrium constant for the cleavage reaction, Kc",37° C.,0.068
